Reference: patent US9328326B2, “Method for isolating cells” (MERCK PATENT GMBH, priority 2006, dated 2016)
Entries after “also recorded” stand apart in the source; their conditions may differ.

Test: ability of detergents, buffers, solvents and additives to dissolve food matrices (matrix lysis development)

SMILES	performance in lysing food matrices (combined with detergents)	performance in lysing food matrices (used alone)	lysis of food matrices (in combination with 8 M Urea or 8 M Guanidine, listed as SDS, sulfate)	lysis of food matrices (used individually)
NC(N)=O [8 M Urea, urea]	even better performance	good performance		
CCCCCCCCCCCCOS(=O)(=O)[O-].[Na+] [1% SDS, sodium dodecyl sulfate]			good performance; also recorded: worked well	insufficient lysis
